Data: paper PMC9104152, “Phosphoproteomics Unravel HBV Triggered Rewiring of Host Phosphosignaling Events” (International Journal of Molecular Sciences, 2022)

B1: O43818 1xPhospho [S53(99.6)] (protein, UniProt O43818 1-475, looked up)
U3 small nucleolar …: MSATAAARKRGKPASGAGAGAGAGKRRRKADSAGDRGKSKGGGKMNEEISSDSESESLAPRKPEEEEEEELEETAQEKKLRLAKLYLEQLRQQEEEKAEARAFEEDQVAGRLKEDVLEQRGRLQKLVAKEIQAPASADIRVLRGHQLSITCLVVTPDDSAIFSAAKDCSIIKWSVESGRKLHVIPRAKKGAEGKPPGHSSHVLCMAISSDGKYLASGDRSKLILIWEAQSCQHLYTFTGHRDAVSGLAFRRGTHQLYSTSHDRSVKVWNVAENSYVETLFGHQDAVAALDALSRECCVTAGGRDGTVRVWKIPEESQLVFYGHQGSIDCIHLINEEHMVSGADDGSVALWGLSKKRPLALQREAHGLRGEPGLEQPFWISSVAALLNTDLVATGSHSSCVRLWQCGEGFRQLDLLCDIPLVGFINSLKFSSSGDFLVAGVGQEHRLGRWWRIKEARNSVCIIPLRRVPVPPAAGS
modifications: phosphorylated S53
B2: P57086 1xPhospho [S/T] (protein, UniProt P57086 1-179, looked up)
SCAN domain-containing …: MAATEPILAATGSPAAVPPEKLEGAGSSSAPERNCVGSSLPEASPPAPEPSSPNAAVPEAIPTPRAAASAALELPLGPAPVSVAPQAEAEARSTPGPAGSRLGPETFRQRFRQFRYQDAAGPREAFRQLRELSRQWLRPDIRTKEQIVEMLVQEQLLAILPEAARARRIRRRTDVRITG
modifications: phospho
B3: Q96T23 1xPhospho [Y/S] (protein, UniProt Q96T23 1-1441, looked up)
Remodeling and spacing factor …: MATAAAAAAVMAPPGCPGSCPNFAVVCSFLERYGPLLDLPELPFPELERVLQAPPPDVGNGEVPKELVELHLKLMRKIGKSVTADRWEKYLIKICQEFNSTWAWEMEKKGYLEMSVECKLALLKYLCECQFDDNLKFKNIINEEDADTMRLQPIGRDKDGLMYWYQLDQDHNVRMYIEEQDDQDGSSWKCIVRNRNELAETLALLKAQIDPVLLKNSSQQDNSSRESPSLEDEETKKEEETPKQEEQKESEKMKSEEQPMDLENRSTANVLEETTVKKEKEDEKELVKLPVIVKLEKPLPENEEKKIIKEESDSFKENVKPIKVEVKECRADPKDTKSSMEKPVAQEPERIEFGGNIKSSHEITEKSTEETEKLKNDQQAKIPLKKREIKLSDDFDSPVKGPLCKSVTPTKEFLKDEIKQEEETCKRISTITALGHEGKQLVNGEVSDERVAPNFKTEPIETKFYETKEESYSPSKDRNIITEGNGTESLNSVITSMKTGELEKETAPLRKDADSSISVLEIHSQKAQIEEPDPPEMETSLDSSEMAKDLSSKTALSSTESCTMKGEEKSPKTKKDKRPPILECLEKLEKSKKTFLDKDAQRLSPIPEEVPKSTLESEKPGSPEAAETSPPSNIIDHCEKLASEKEVVECQSTSTVGGQSVKKVDLETLKEDSEFTKVEMDNLDNAQTSGIEEPSETKGSMQKSKFKYKLVPEEETTASENTEITSERQKEGIKLTIRISSRKKKPDSPPKVLEPENKQEKTEKEEEKTNVGRTLRRSPRISRPTAKVAEIRDQKADKKRGEGEDEVEEESTALQKTDKKEILKKSEKDTNSKVSKVKPKGKVRWTGSRTRGRWKYSSNDESEGSGSEKSSAASEEEEEKESEEAILADDDEPCKKCGLPNHPELILLCDSCDSGYHTACLRPPLMIIPDGEWFCPPCQHKLLCEKLEEQLQDLDVALKKKERAERRKERLVYVGISIENIIPPQEPDFSEDQEEKKKDSKKSKANLLERRSTRTRKCISYRFDEFDEAIDEAIEDDIKEADGGGVGRGKDISTITGHRGKDISTILDEERKENKRPQRAAAARRKKRRRLNDLDSDSNLDEEESEDEFKISDGSQDEFVVSDENPDESEEDPPSNDDSDTDFCSRRLRRHPSRPMRQSRRLRRKTPKKKYSDDDEEEESEENSRDSESDFSDDFSDDFVETRRRRSRRNQKRQINYKEDSESDGSQKSLRRGKEIRRVHKRRLSSSESEESYLSKNSEDDELAKESKRSVRKRGRSTDEYSEADEEEEEEEGKPSRKRLHRIETDEEESCDNAHGDANQPARDSQPRVLPSEQESTKKPYRIESDEEEDFENVGKVGSPLDYSLVDLPSTNGQSPGKAIENLIGKPTEKSQTPKDNSTASASLASNGTSGGQEAGAPEEEEDELLRVTDLVDYVCNSEQL
modifications: phosphorylated
B4: Q9BST9 1xPhospho [S561(100)] (protein, UniProt Q9BST9 1-563, looked up)
Rhotekin: MFSRNHRSRVTVARGSALEMEFKRGRFRLSLFSDLPEDTELQRKLDHEIRMREGACKLLAACSQREQALEATKSLLVCNSRILSYMGELQRRKEAQVLGKTSRRPSDSGPPAERSPCRGRVCISDLRIPLMWKDTEYFKNKGDLHRWAVFLLLQLGEHIQDTEMILVDRTLTDISFQSNVLFAEAGPDFELRLELYGACVEEEGALTGGPKRLATKLSSSLGRSSGRRVRASLDSAGGSGSSPILLPTPVVGGPRYHLLAHTTLTLAAVQDGFRTHDLTLASHEENPAWLPLYGSVCCRLAAQPLCMTQPTASGTLRVQQAGEMQNWAQVHGVLKGTNLFCYRQPEDADTGEEPLLTIAVNKETRVRAGELDQALGRPFTLSISNQYGDDEVTHTLQTESREALQSWMEALWQLFFDMSQWKQCCDEIMKIETPAPRKPPQALAKQGSLYHEMAIEPLDDIAAVTDILTQREGARLETPPPWLAMFTDQPALPNPCSPASVAPAPDWTHPLPWGRPRTFSLDAVPPDHSPRARSVAPLPPQRSPRTRGLCSKGQPRTWLQSPV
modifications: phosphorylated S561
B5: A3KN83 1xPhospho [S] (protein, UniProt A3KN83 1-1393, looked up)
Protein strawberry notch …: MVEPGQDLLLAALSESGISPNDLFDIDGGDAGLATPMPTPSVQQSVPLSALELGLETEAAVPVKQEPETVPTPALLNVRQQPPSTTTFVLNQINHLPPLGSTIVMTKTPPVTTNRQTITLTKFIQTTASTRPSVSAPTVRNAMTSAPSKDQVQLKDLLKNNSLNELMKLKPPANIAQPVATAATDVSNGTVKKESSNKEGARMWINDMKMRSFSPTMKVPVVKEDDEPEEEDEEEMGHAETYAEYMPIKLKIGLRHPDAVVETSSLSSVTPPDVWYKTSISEETIDNGWLSALQLEAITYAAQQHETFLPNGDRAGFLIGDGAGVGKGRTIAGIIYENYLLSRKRALWFSVSNDLKYDAERDLRDIGAKNILVHSLNKFKYGKISSKHNGSVKKGVIFATYSSLIGESQSGGKYKTRLKQLLHWCGDDFDGVIVFDECHKAKNLCPVGSSKPTKTGLAVLELQNKLPKARVVYASATGASEPRNMAYMNRLGIWGEGTPFREFSDFIQAVERRGVGAMEIVAMDMKLRGMYIARQLSFTGVTFKIEEVLLSQSYVKMYNKAVKLWVIARERFQQAADLIDAEQRMKKSMWGQFWSAHQRFFKYLCIASKVKRVVQLAREEIKNGKCVVIGLQSTGEARTLEALEEGGGELNDFVSTAKGVLQSLIEKHFPAPDRKKLYSLLGIDLTAPSNNSSPRDSPCKENKIKKRKGEEITREAKKARKVGGLTGSSSDDSGSESDASDNEESDYESSKNMSSGDDDDFNPFLDESNEDDENDPWLIRKDHKKNKEKKKKKSIDPDSIQSALLASGLGSKRPSFSSTPVISPAPNSTPANSNTNSNSSLITSQDAVERAQQMKKDLLDKLEKLAEDLPPNTLDELIDELGGPENVAEMTGRKGRVVSNDDGSISYESRSELDVPVEILNITEKQRFMDGDKNIAIISEAASSGISLQADRRAKNQRRRVHMTLELPWSADRAIQQFGRTHRSNQVTAPEYVFLISELAGEQRFASIVAKRLESLGALTHGDRRATESRDLSRFNFDNKYGRNALEIVMKSIVNLDSPMVSPPPDYPGEFFKDVRQGLIGVGLINVEDRSGILTLDKDYNNIGKFLNRILGMEVHQQNALFQYFADTLTAVVQNAKKNGRYDMGILDLGSGDEKVRKSDVKKFLTPGYSTSGHVELYTISVERGMSWEEATKIWAELTGPDDGFYLSLQIRNNKKTAILVKEVNPKKKLFLVYRPNTGKQLKLEIYADLKKKYKKVVSDDALMHWLDQYNSSADTCTHAYWRGNCKKASLGLVCEIGLRCRTYYVLCGSVLSVWTKVEGVLASVSGTNVKMQIVRLRTEDGQRIVGLIIPANCVSPLVNLLSTSDQSQQLAVQQKQLWQQHHPQSITNLSNA
modifications: phosphorylated serine

The molecules below were run on HepG2-NTCP cells (assay: TMT-based phosphoproteome profiling of HBV-infected vs mock HepG2-NTCP (HBV/mock ratio)). Details: phosphosite abundance ratio of host protein, HBV-infected vs mock HepG2-NTCP, 7dpi, sheet Up-regulated.
Design: species or system human

Row | Molecule | HBV/mock
1 | B1 | 6.455
2 | B2 | 1.444
3 | B3 | 2.043
4 | B4 | 1.468
5 | B5 | 2.712
